Assay results: PubChem BioAssay AID435030 (The Scripps Research Institute Molecular Screening Center, 2010)
The list shows a part of the results, in another mix than the full data. Some salts or complexes appear as unconnected parts, following the source record. Activity calls are given as the source filed them. Rule as the data show it: active = inhibition above about 12%; inactive = the rest.

Assay: reduced growth of AddAB-expressing E. coli cells – absorbance, AddAB inhibitor project, primary screen (AID 435030);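 also: 0% = vehicle wells of infected cells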
Details: E. coli expressing H. pylori AddAB, at 11.9 µM, hits give high values

SMILES	inhibition
CCOC(=O)c1ccc(NP(C)(=O)Oc2ccc(F)cc2)cc1 (stereo not drawn)	inactive: 0.17%
COc1ccc(OP(C)(=O)Nc2ccc(SC(F)(F)F)cc2)cc1 (stereo not drawn)	inactive: 0.41%
CP(=O)(Nc1ccccc1)Oc1ccc(F)cc1 (stereo not drawn)	inactive: 3.57%
O=[N+]([O-])c1cc([N+](=O)[O-])c(OC2CCCCC2O)c([N+](=O)[O-])c1 (stereo not drawn)	inactive: 0%
CCCCCOc1ccc(NP(C)(=O)Oc2ccc(Cl)cc2Cl)cc1 (stereo not drawn)	inactive: 1.9%
CCN(CC)CCCOC(=O)C(O)(c1ccccc1)C1CCCCC1 (stereo not drawn)	inactive: -0.66%
CP(=O)(Nc1ccccc1F)Oc1ccccc1 (stereo not drawn)	inactive: 0.94%
CC(C)c1ccc(OP(C)(=O)Nc2ccc(SC(F)(F)F)cc2)cc1 (stereo not drawn)	inactive: 4.7%
COc1ccc2c(c1O)-c1c(O)c(OC)cc3c1[C@H](C2)[N+](C)(C)CC3.O=[N+]([O-])c1cc([N+](=O)[O-])c([O-])c([N+](=O)[O-])c1[O-]	inactive: 1.41%
O=C(OC1CN2CCC1CC2)c1ccc([N+](=O)[O-])cc1 (stereo not drawn)	inactive: 4.64%
O=C(OCCN1CCN(CCOCc2ccccc2)CC1)C(O)(c1ccccc1)c1ccccc1	inactive: 3.9%
CCOP(C)(=S)SCC(=O)NC(C)(CC)C(=O)O (stereo not drawn)	inactive: 1.15%
CP(=O)(Nc1ccc(SC(F)(F)F)cc1)Oc1ccc(F)cc1 (stereo not drawn)	inactive: 1.26%
Cc1ccccc1NP(C)(=O)Nc1ccccc1C	inactive: 4.8%
CP(=O)(Nc1ccc2c(c1)OCCO2)Oc1ccccc1 (stereo not drawn)	inactive: -0.48%
CN(C)CCOC(=O)C(O)(c1ccccc1)C1CCCCC1 (stereo not drawn)	inactive: -3.52%
COc1ccc(NP(C)(=O)Oc2ccccc2OC)cc1 (stereo not drawn)	inactive: 2.22%
COc1ccc(OP(C)(=O)Nc2cccc(Br)c2)cc1 (stereo not drawn)	inactive: -0.41%
O=[N+]([O-])c1cc([N+](=O)[O-])c(NCC2CCS(=O)(=O)C2)c([N+](=O)[O-])c1 (stereo not drawn)	inactive: 0.17%
CCOC(=O)c1ccc(NP(C)(=O)Oc2ccc(Cl)cc2)cc1 (stereo not drawn)	inactive: 3.07%
CP(=O)(OC12CC3CC(CC(C3)C1)C2)OC12CC3CC(CC(C3)C1)C2	inactive: 1.66%
Nc1ccc2c(ccc3cccnc32)n1.O=[N+]([O-])c1cc([N+](=O)[O-])c(O)c([N+](=O)[O-])c1	inactive: 2.98%

SMILES	inhibition
COc1ccccc1OP(C)(=O)Nc1c(C)n(C)n(-c2ccccc2)c1=O (stereo not drawn)	inactive: 1.76%
O=C(OCCCN1CCCC1)C(O)(c1ccccc1)C1CCCCC1 (stereo not drawn)	inactive: -1.55%
CP(=O)(Oc1ccccc1)N1CCOC1=O (stereo not drawn)	inactive: 0.57%
CCc1ccc(OP(C)(=O)Nc2cccnc2)cc1 (stereo not drawn)	inactive: -0.17%
CCN(CC)CC(O)COC(=O)C(O)(c1ccccc1)C1CCCCC1 (stereo not drawn)	inactive: 1.93%
COc1ccc(OP(C)(=O)Nc2ccc(Br)cc2)cc1 (stereo not drawn)	inactive: 0.34%
CN(C)C(=O)c1c([N+](=O)[O-])cc([N+](=O)[O-])cc1[N+](=O)[O-]	inactive: 1.2%
CC(C)(C)c1ccc(OP(C)(=O)O)cc1	inactive: 0.76%
COc1ccccc1OP(C)(=O)Nc1ccccc1Br (stereo not drawn)	inactive: -1.54%
CP(=O)(Nc1ccc(Cl)cc1)Oc1ccc(F)cc1 (stereo not drawn)	inactive: 1.12%
COc1ccc(OP(C)(=O)Nc2ccccn2)cc1 (stereo not drawn)	inactive: 1.43%
CN(C)CCOC(=O)C(O)(c1ccccc1)C1CCCC1 (stereo not drawn)	inactive: 0.26%
COc1ccccc1OP(C)(=O)Nc1ccc(Br)cc1 (stereo not drawn)	inactive: -0.17%
CP(=O)(Nc1ccccn1)Oc1ccccc1 (stereo not drawn)	inactive: -0.68%
COc1ccccc1OP(C)(=O)Nc1ccc(C)cc1C (stereo not drawn)	inactive: 1.72%
CCc1ccc(OP(C)(=O)O)cc1	inactive: 0.81%
O=[N+]([O-])c1cc([N+](=O)[O-])c(Nc2ccccn2)c([N+](=O)[O-])c1	inactive: 0.17%
Cc1c(NP(C)(=O)Oc2ccc(C(C)C)cc2)c(=O)n(-c2ccccc2)n1C (stereo not drawn)	inactive: 2.31%
COc1ccccc1OP(C)(=O)Nc1ccc(C)c(C)c1 (stereo not drawn)	inactive: 0%
COc1ccc(OP(C)(=O)Nc2ccccc2Br)cc1 (stereo not drawn)	inactive: 0.26%
Cc1cc(C)cc(OP(C)(=O)Nc2cccc(C(F)(F)F)c2)c1 (stereo not drawn)	inactive: 1.99%
CP(=O)(OCCOc1ccccc1)OCCOc1ccccc1	inactive: -0.76%

SMILES	inhibition
CP(=O)(Nc1ccc(Cl)cc1Cl)Oc1ccccc1 (stereo not drawn)	inactive: -0.6%
Cc1nc2ccc3ccccc3c2o1.O=[N+]([O-])c1cc([N+](=O)[O-])c(O)c([N+](=O)[O-])c1	inactive: 0.4%
O=[N+]([O-])c1ccc2c(c1)C=Nc1ccccc1O2	inactive: -0.33%
CC(C)(C)c1ccc(OP(C)(=O)Nc2ccc(SC(F)(F)F)cc2)cc1 (stereo not drawn)	inactive: 0.95%
Cc1cccc(C)c1OP(C)(N)=O (stereo not drawn)	inactive: 1.03%
O=[N+]([O-])c1cc([N+](=O)[O-])c(Nc2cccnc2)c([N+](=O)[O-])c1	inactive: 3.73%
Cc1cc(C)cc(OP(C)(N)=O)c1 (stereo not drawn)	inactive: 0.08%
COc1ccccc1OP(C)(=O)Nc1cc(Cl)ccc1C (stereo not drawn)	inactive: 1.03%
COc1ccc(OP(C)(=O)Nc2cccc(F)c2)cc1 (stereo not drawn)	inactive: 1.82%
COc1ccccc1OP(C)(=O)Nc1ccc(C)cc1 (stereo not drawn)	inactive: -4.65%
Cc1ccc(NP(C)(=O)Oc2ccccc2)c(C)c1 (stereo not drawn)	inactive: 0.85%
CCOC(=O)c1ccc(NP(C)(=O)Oc2ccccc2)cc1 (stereo not drawn)	inactive: 1.95%
CCN(CC)CCCOC(=O)C(O)(c1ccccc1)c1ccccc1	inactive: 0.82%
CCc1ccc(OP(C)(=O)N2CCN(c3ccc([N+](=O)[O-])cc3)CC2)cc1 (stereo not drawn)	inactive: -1.2%
CP(=O)(NC(=O)Nc1ccccc1)Oc1ccccc1 (stereo not drawn)	inactive: 0.94%
Cc1cc(C)cc(OP(C)(=O)Nc2ccc(SC(F)(F)F)cc2)c1 (stereo not drawn)	inactive: 0.34%
Cc1cccc(C)c1OP(C)(=O)Nc1ccc(SC(F)(F)F)cc1 (stereo not drawn)	inactive: 3.69%
CP(=O)(Nc1ccc(SC(F)(F)F)cc1)Oc1ccc(Cl)cc1 (stereo not drawn)	inactive: 0.65%
CP(=O)(Oc1ccccc1)OC(c1ccccc1)C(F)(F)F (stereo not drawn)	inactive: -0.73%
CP(=O)(Nc1ccccn1)Oc1ccc(Cl)cc1 (stereo not drawn)	inactive: 1.34%
CCOC(=O)c1ccc(NP(C)(=O)Oc2ccc(OC)cc2)cc1 (stereo not drawn)	inactive: 1.79%
O=[N+]([O-])c1cc([N+](=O)[O-])c(O)c([N+](=O)[O-])c1.c1ccc(Oc2ccncc2)cc1	inactive: 0%

SMILES	inhibition
CCOP(C)(=S)SCC(=O)NC(C)C(=O)O (stereo not drawn)	inactive: 1.38%
CP(=O)(Nc1ccccc1Br)Oc1ccccc1 (stereo not drawn)	inactive: -0.09%
COc1ccccc1OP(C)(=O)Nc1ccccc1 (stereo not drawn)	inactive: -2.45%
CP(=S)(Nn1cnnc1)Oc1ccccc1 (stereo not drawn)	inactive: 0.16%
O=[N+]([O-])c1cc([N+](=O)[O-])c(Nc2nnnn2CCO)c([N+](=O)[O-])c1	inactive: 1.24%
CC1=C2N=C(C=C3N=C(C(C)=C4[N-][C@@](C)([C@@H]5N=C1[C@](C)(CCC(=O)NC[C@@H](C)OP(=O)([O-])O[C@H]1[C@@H](O)[C@@H](n6cnc7cc(C)c(C)cc76)O[C@@H]1CO)[C@H]5CC(N)=O)[C@@](C)(CC(N)=O)[C@@H]4CCC(N)=O)[C@@](C)(CC(N)=O)[C@@H]3CCC(N)=O)C(C)(C)[C@@H]2CCC(N)=O.[C-]#N.[Co+3]	inactive: -2.7%
CCOC(=O)C(CC)C1=NC(C)(C)Cc2ccccc21.O=[N+]([O-])c1cc([N+](=O)[O-])c(O)c([N+](=O)[O-])c1 (stereo not drawn)	inactive: -1.45%
CP(=O)(Nc1ccc(SC(F)(F)F)cc1)Oc1ccccc1 (stereo not drawn)	inactive: 0.81%
CCCOc1ccc(NP(C)(=O)Oc2ccc(Cl)cc2)cc1 (stereo not drawn)	inactive: 3.96%
COc1ccccc1OP(C)(=O)Nc1c(C)cccc1C (stereo not drawn)	inactive: 3.4%
CN1CCCCC1COC(=O)C1(O)c2ccccc2CCc2ccccc21 (stereo not drawn)	inactive: 1.29%
O=[N+]([O-])c1cc([N+](=O)[O-])c(-n2nnc3ccccc32)c([N+](=O)[O-])c1	inactive: -0.66%
Cc1nc2ccc3ccccc3c2s1.O=[N+]([O-])c1cc([N+](=O)[O-])c(O)c([N+](=O)[O-])c1	inactive: -0.77%
O=[N+]([O-])c1cc([N+](=O)[O-])c(-c2cnn(-c3ccccc3)c2)c([N+](=O)[O-])c1	inactive: 0.86%
CCOC(=O)c1ccc(NP(C)(=O)Oc2cc(C)cc(C)c2)cc1 (stereo not drawn)	inactive: 0.33%
Cc1cc(C)cc(OP(C)(=O)Nc2ccc(C)cc2C)c1 (stereo not drawn)	inactive: -2.28%
COc1ccccc1OP(C)(=O)Nc1cccc(Br)c1 (stereo not drawn)	inactive: 2.47%
Cc1ccc(C)c(NP(C)(=O)Oc2ccccc2)c1 (stereo not drawn)	inactive: -0.09%
CP(=O)(Nc1cccc(Br)c1)Oc1ccccc1 (stereo not drawn)	inactive: 0.08%
Cc1cc(C)cc(OP(C)(=O)Nc2ccccn2)c1 (stereo not drawn)	inactive: 0.6%
O=C(O)c1cccc(Nc2c([N+](=O)[O-])cc([N+](=O)[O-])cc2[N+](=O)[O-])c1	inactive: 0.43%
CC1=NCCc2c1[nH]c1ccccc21.O=[N+]([O-])c1cc([N+](=O)[O-])c(O)c([N+](=O)[O-])c1	inactive: 1.06%
